Compound potency records, mixed from different reports. Data source: NIAID ChemDB in PubChem.

All rows: whole-cell or culture tests; agent: Mycobacterium avium; measure: MIC

Neighbouring rows are from separate reports.

| compound | strain or isolate | result |
|---|---|---|
| C(=C\c1ccccc1)/CCNc1ccc(N2CCSCC2)cc1 | 103317 | 8 µg/mL |
| CCCCCCOc1cccc(NC(=O)OCCN2CCCCC2)c1 | MY330/88 | 16 µM |
| N/C(=N\NC(CC(=O)c1ccc(Cl)c(Cl)c1)c1cccnc1)c1ccccn1 | 485 | 80 µg/mL |
| Cc1ccc2c(=O)n(-c3ccccc3)c(=O)oc2c1 | CNCTC MY330/88 | 31 µM |
| CCCCCCOc1cccc(NC(=O)OC(C)CN2CCCCC2)c1 | MY330/88 | 16 µM |
| O=c1oc2ccc(Br)cc2c(=O)n1-c1cccc(F)c1 | CNCTC MY330/88 | 31 µM |
| Cc1ccc2nc(SCc3ccc([N+](=O)[O-])cc3)[nH]c2c1 | MY330/88 | 8 µM |
| C[C@H]1COc2c(N3CCN(C)CC3)c(F)cc3c(=O)c(C(=O)O)cn1c23 | 25-3 | 0.5 µg/mL |
| Cc1ccc2nc(SCc3ccc(Cl)c(Cl)c3)[nH]c2c1 | MY330/88 | >32 µM |
| NC(=S)NNC(=O)c1ccc([N+](=O)[O-])cc1 | ATCC 19421 | >100 µg/mL |
| C(=C\c1ccccc1)/CCNc1ccccc1N1CCSCC1 | 103317 | >16 µg/mL |
| N#Cc1ccc(-n2c(=O)oc3ccc(F)cc3c2=O)cc1 | CNCTC MY330/88 | 32 µM |
| CCCSc1nnnn1-c1cccc(C)c1 | 80/72 | 500 µM |
| N/C(=N\NC(CC(=O)c1cccc(Cl)c1)c1ccccn1)c1ccccn1 | 485 | 80 µg/mL |
| Cc1nc2scc(-c3ccco3)c2c(=O)n1/N=C/C1CCCCC1 | CNCTC MY330/88 | 62 µM |
| CCCCCOc1ccc(NC(=O)OC(C)CN2CCCCC2)cc1 | MY330/88 | 32 µM |
| Cc1nc2scc(-c3ccco3)c2c(=O)n1NC(=O)c1ccccc1 | CNCTC MY330/88 | 48 µM |
| c1ccc(-c2ccc(CNc3ccc(N4CCSCC4)cc3)cc2)cc1 | 103317 | >16 µg/mL |
| O=c1oc2cc(Cl)ccc2c(=O)n1-c1ccc(F)cc1 | CNCTC MY330/88 | 32 µM |
| CS/C(N)=N/NC(=O)c1ccc(Cl)cc1 | ATCC 19421 | >100 µg/mL |
| N/C(=N\NC(CC(=O)c1ccccc1)c1ccccn1)c1ccccn1 | 485 | 80 µg/mL |
| C=CCS/C(N)=N/NC(=O)c1ccc(Cl)cc1 | ATCC 19421 | >100 µg/mL |
| CCSc1nnnn1-c1cccc(C)c1 | 80/72 | 1000 µM |
| Cc1cccc(C(N)=Nc2nc(-c3ccccn3)cc3ccccc23)c1 | SK-10 | 2 µg/mL |
| Cc1nc2scc(-c3ccco3)c2c(=O)n1NC(=O)C1CCCCC1 | CNCTC MY330/88 | 88 µM |
| CS/C(N)=N/NC(=O)c1ccc(C)cc1 | ATCC 19421 | >100 µg/mL |
| O=c1oc2ccc(F)cc2c(=O)n1-c1cccc(F)c1 | CNCTC MY330/88 | 31 µM |
| Cc1ccc(-n2nnnc2SC(C)C)cc1 | 80/72 | 1000 µM |
| COc1cc(C(=O)N/N=C(\N)SC)cc(OC)c1OC | ATCC 19421 | >100 µg/mL |
| Cc1ccc(-n2nnnc2SC(C)C)cc1C | 80/72 | 250 µM |
| C=CCS/C(N)=N/NC(=O)c1ccccc1 | ATCC 19421 | >100 µg/mL |
| O=C(Nc1cccc(N2CCSCC2)c1)c1ccc(-c2ccccc2)cc1 | 103317 | >16 µg/mL |
| Cc1ccc(C(=O)CC(N/N=C(\N)c2ccccn2)c2ccncc2)cc1 | 485 | 16 µg/mL |
| Cc1ccc2nc(SCc3ccc(C(N)=S)cc3)[nH]c2c1 | MY330/88 | 16 µM |
| O=c1oc2ccc(Br)cc2c(=O)n1-c1cccc(Cl)c1 | CNCTC MY330/88 | 16 µM |
| CCCSc1nnnn1-c1c(C)cc(C)cc1C | 80/72 | 1000 µM |
| Cc1nc2scc(-c3ccco3)c2c(=O)n1NC(=O)c1cccs1 | CNCTC MY330/88 | 121 µM |
| Cc1ccc2nc(SCc3cccc(C(N)=S)c3)[nH]c2c1 | MY330/88 | 62 µM |
| Clc1ccc2c(c1)nc1cc(Nc3ccccc3)c(=NC3CCCCC3)cc-1n2-c1ccccc1 | 19894 | 1 µg/mL |
| Cc1ccc2nc(SCc3cc([N+](=O)[O-])cc([N+](=O)[O-])c3)[nH]c2c1 | MY330/88 | 32 µM |
| NC(=S)NNC(=O)c1ccc(Cl)cc1Cl | ATCC 19421 | >100 µg/mL |
| Cc1nc2scc(-c3ccco3)c2c(=O)n1NC(=O)c1ccc([N+](=O)[O-])cc1 | CNCTC MY330/88 | 6 µM |
| N/C(=N\NC(=O)c1ccccc1)SCc1cccc(Cl)c1 | ATCC 19421 | >100 µg/mL |
| Cc1nc2scc(-c3ccco3)c2c(=O)n1NC(=O)c1ccc(Cl)cc1 | CNCTC MY330/88 | 20 µM |
| CCCCCCOc1ccc(NC(=O)OC(C)CN2CCCCC2)cc1 | MY330/88 | 16 µM |
| O=c1oc2ccccc2c(=O)n1-c1ccc([N+](=O)[O-])cc1 | CNCTC MY330/88 | 31 µM |
| Cc1nc2scc(-c3ccco3)c2c(=O)n1/N=C/c1ccccc1 | CNCTC MY330/88 | 48 µM |
| Cc1ccc2nc(SCc3cc(C(F)(F)F)cc(C(F)(F)F)c3)[nH]c2c1 | MY330/88 | 62 µM |

For reference, 4 entries again:

compound | strain or isolate | result
Cc1ccc2nc(SCc3cc(C(F)(F)F)cc(C(F)(F)F)c3)[nH]c2c1 | MY330/88 | 62 µM
CS/C(N)=N/NC(=O)c1ccc(C)cc1 | ATCC 19421 | >100 µg/mL
COc1cc(C(=O)N/N=C(\N)SC)cc(OC)c1OC | ATCC 19421 | >100 µg/mL
N/C(=N\NC(CC(=O)c1ccc(Cl)c(Cl)c1)c1cccnc1)c1ccccn1 | 485 | 80 µg/mL